Experimental data taken from US8076375B2 (priority 2005, dated 2011).

Biological target: variola F10 kinase (GST-F10) (Variola virus, UniProt P33801, R299C)
Settings: for Percent activity remaining at 10 μM, F10: 10 μM inhibitor; for Effect on F10 kinase activity in vitro (in words): 10 μM in the screen

Compound	Percent activity remaining at 10 μM, F10 [%]	Effect on F10 kinase activity in vitro (in words)
O=C(O)CCc1c2ccc(=O)c(O)c-2oc2c(O)c(O)ccc12 [Compound 119915-Z, 3-(4,5,6-trihydroxy-3-oxo-xanthen-9-yl)propanoic acid]	4	–
CC1C2C=CC1C(c1c3ccc(=O)c(O)c-3oc3c(O)c(O)ccc13)C2C(=O)O (stereo not shown) [Compound 119913-X, 7-methyl-6-(4,5,6,-trihydroxy-3-oxo-xanthen-9-yl)-bicyclo[2.2.1]hetp-2-ene-5-carboxylic acid]	2	–
O=C(O)c1cc2c(cc1S(=O)(=O)O)C1C(C3C2C2(Cl)C(Cl)=C(Cl)C3(Cl)C2(Cl)Cl)C2(Cl)C(Cl)=C(Cl)C1(Cl)C2(Cl)Cl (stereo not shown) [Compound 270718-R, 3-sulfo-2-naphthoic acid-bis(hexachlorocyclopentadiene) adduct]	19 ± 18	–
O=C(O)C1CCCCC1c1c2ccc(=O)c(O)c-2oc2c(O)c(O)ccc12 (stereo not shown) [Compound 119910-U, 2-(4,5,6-trihydroxy-3-oxo-xanthen-9-yl)cyclohexane-1-carboxylic acid]	6	–
CN[C@@H]1C[C@H]2O[C@@](C)([C@@H]1OC)n1c3ccccc3c3c4c(c5c6ccccc6n2c5c31)C(=O)NC4 [staurosporine, reference compound]	–	inhibited B1 or F10 kinase
O=C(O)C=Cc1ccc[c]([Sb](=[O])([OH])[OH])c1 [Compound 13778-J, 3-(3-stibonophenyl)prop-2-enoic acid]	4 ± 4	specifically inhibited GST-F10
O=C1c2ccccc2C(=O)c2c(NC3CCCCC3)ccc(Nc3ccc(S(=O)(=O)O)cc3)c21 [Compound 128437-O, 4-(4-cyclohexylamino-9,10-dioxo-anthracen-1-yl)aminobenzenesulfonic acid]	12	specifically inhibited GST-F10
Nc1nc(N)c(/N=N/c2ccc(C(=O)O)c(O)c2)c(N)n1 [Compound 117285-R, 2-hydroxy-4-(2,4,6-triaminopyrimidin-5-yl)diazenyl-benzoic acid]	48 ± 20	–
O=S(=O)(O)c1ccc(NN(c2c(O)ccc3ccccc23)S(=O)(=O)O)cc1 [Compound 9600-Q, 4-[N′-(2-hydroxynaphthalen-1-yl)-N′-sulfo-hydrazino]benzenesulfonic acid]	8 ± 5	specifically inhibited GST-F10
O=C(O)c1cccc(/N=N/c2c(S(=O)(=O)O)ccc3c2C(=O)c2ccccc2C3=O)c1O [Compound 125908-P, 3-(9,10-dioxo-2-sulfo-anthracen-1-yl)diazenyl-2-hydroxy-benzoic acid]	8	specifically inhibited GST-F10
O=C(O)C=Cc1c2ccc(=O)c(O)c-2oc2c(O)c(O)ccc12 [Compound 119911-V, 3-(4,5,6-trihydroxy-3-oxo-xanthen-9-yl)prop-2-enoic acid]	2	–
CCc1c(O)c2c(c(O)c1C(C)=O)C(=O)c1c(cc(O)c(C(=O)O)c1C(=O)O)C2=O [Compound 170008-Y, 2-acetyl-7,8-bis(dihydroxymethylidene)-3-ethyl-9-hydroxy-anthracene-1,4,6,10-tetrone]	2	–
